# In patent US20220089698A1, “ANTIBODIES THAT TARGET HIV GP120 AND METHODS OF USE” (published 2022):
# How the values were obtained:
# Test in all cases: cell-based or functional assay
# [1] = target: HIV-1 envelope glycoprotein (gp120) of virus 92US712 (HIV-1)
# [2] = target: HIV-1 envelope glycoprotein (gp120) of virus VS001 (HIV-1)
# [3] = target: HIV-1 envelope glycoprotein (gp120) of virus 7141 (HIV-1)
# [4] = target: HIV-1 envelope glycoprotein (gp120) of virus 92US727 (HIV-1)
Binder,Neutralization IC50 [1] [µg/mL],Neutralization IC50 [2] [µg/mL],Neutralization IC50 [3] [µg/mL],Neutralization IC50 [4] [µg/mL]
"2.2.1-1 (antibody, human IgG1, kappa) heavy: QVHLSQSGAAVTKPGASVRVSCEASGYKIRDHFIHWWRQAPGQGLQWVGWINPKTGQPNNPRQFQGRVSLTRHASWDFDTFSFYMDLKAVRSDDTAIYFCARQRSDYWDFDVWGSGTQVTVSSASTKGPSVFPLAPSSKSTSGGTAALGCLVKDYFPEPVTVSWNSGALTSGVHTFPAVLQSSGLYSLSSVVTVPSSSLGTQTYICNVNHKPSNTKVDKKVEPKSCDKTHTCPPCPAPELLAGPDVFLFPPKPKDTLMISRTPEVTCVVVDVSHEDPEVKFNWYVDGVEVHNAKTKPREEQYNSTYRVVSVLTVLHQDWLNGKEYKCKVSNKALPLPEEKTISKAKGQPREPQVYTLPPSREEMTKNQVSLTCLVKGFYPSDIAVEWESNGQPENNYKTTPPVLDSDGSFFLYSKLTVDKSRWQQGNVFSCSVLHEALHSHYTQKSLSLSPGK light: not shown",0.05,0.1,1.61,–
"2.3.1-1 (antibody, human IgG1, kappa) heavy: QVHLSQSGAAVTKPGASVRVSCEASGYNIRDYFIHWWRQAPGQGLQWVGWINPKTGQPNNPRQFQGRVSLTRHASWDFDTFSFYMDLKAVRSDDTAIYFCARQRSDYWDFDVWGSGTQVTVSSASTKGPSVFPLAPSSKSTSGGTAALGCLVKDYFPEPVTVSWNSGALTSGVHTFPAVLQSSGLYSLSSVVTVPSSSLGTQTYICNVNHKPSNTKVDKKVEPKSCDKTHTCPPCPAPELLAGPDVFLFPPKPKDTLMISRTPEVTCVVVDVSHEDPEVKFNWYVDGVEVHNAKTKPREEQYNSTYRVVSVLTVLHQDWLNGKEYKCKVSNKALPLPEEKTISKAKGQPREPQVYTLPPSREEMTKNQVSLTCLVKGFYPSDIAVEWESNGQPENNYKTTPPVLDSDGSFFLYSKLTVDKSRWQQGNVFSCSVLHEALHSHYTQKSLSLSPGK light: not shown",0.13,0.2,2.65,–
"2.2.8-1 (antibody, human IgG1, kappa) heavy: QVHLSQSGAAVTKPGASVRVSCEASGYKIRDHFIHWWRQAPGQGLQWVGWINPKTGQPNNPRQFQGRVSLTRHASWDFDTFSFYMDLKAVRSDDTAIYFCARQRSDYWDFDVWGSGTQVTVSSASTKGPSVFPLAPSSKSTSGGTAALGCLVKDYFPEPVTVSWNSGALTSGVHTFPAVLQSSGLYSLSSVVTVPSSSLGTQTYICNVNHKPSNTKVDKKVEPKSCDKTHTCPPCPAPELLAGPDVFLFPPKPKDTLMISRTPEVTCVVVDVSHEDPEVKFNWYVDGVEVHNAKTKPREEQYNSTYRVVSVLTVLHQDWLNGKEYKCKVSNKALPLPEEKTISKAKGQPREPQVYTLPPSREEMTKNQVSLTCLVKGFYPSDIAVEWESNGQPENNYKTTPPVLDSDGSFFLYSKLTVDKSRWQQGNVFSCSVLHEALHSHYTQKSLSLSPGK light: not shown",0.07,0.07,1.6,3.38
"2.3.8-1 (antibody, human IgG1, kappa) heavy: QVHLSQSGAAVTKPGASVRVSCEASGYNIRDYFIHWWRQAPGQGLQWVGWINPKTGQPNNPRQFQGRVSLTRHASWDFDTFSFYMDLKAVRSDDTAIYFCARQRSDYWDFDVWGSGTQVTVSSASTKGPSVFPLAPSSKSTSGGTAALGCLVKDYFPEPVTVSWNSGALTSGVHTFPAVLQSSGLYSLSSVVTVPSSSLGTQTYICNVNHKPSNTKVDKKVEPKSCDKTHTCPPCPAPELLAGPDVFLFPPKPKDTLMISRTPEVTCVVVDVSHEDPEVKFNWYVDGVEVHNAKTKPREEQYNSTYRVVSVLTVLHQDWLNGKEYKCKVSNKALPLPEEKTISKAKGQPREPQVYTLPPSREEMTKNQVSLTCLVKGFYPSDIAVEWESNGQPENNYKTTPPVLDSDGSFFLYSKLTVDKSRWQQGNVFSCSVLHEALHSHYTQKSLSLSPGK light: not shown",0.07,0.15,1.64,1.72
"2.2.10-1 (antibody, human IgG1, kappa) heavy: QVHLSQSGAAVTKPGASVRVSCEASGYKIRDHFIHWWRQAPGQGLQWVGWINPKTGQPNNPRQFQGRVSLTRHASWDFDTFSFYMDLKAVRSDDTAIYFCARQRSDYWDFDVWGSGTQVTVSSASTKGPSVFPLAPSSKSTSGGTAALGCLVKDYFPEPVTVSWNSGALTSGVHTFPAVLQSSGLYSLSSVVTVPSSSLGTQTYICNVNHKPSNTKVDKKVEPKSCDKTHTCPPCPAPELLAGPDVFLFPPKPKDTLMISRTPEVTCVVVDVSHEDPEVKFNWYVDGVEVHNAKTKPREEQYNSTYRVVSVLTVLHQDWLNGKEYKCKVSNKALPLPEEKTISKAKGQPREPQVYTLPPSREEMTKNQVSLTCLVKGFYPSDIAVEWESNGQPENNYKTTPPVLDSDGSFFLYSKLTVDKSRWQQGNVFSCSVLHEALHSHYTQKSLSLSPGK light: not shown",0.05,0.79,4.31,> 50
"2.3.10-1 (antibody, human IgG1, kappa) heavy: QVHLSQSGAAVTKPGASVRVSCEASGYNIRDYFIHWWRQAPGQGLQWVGWINPKTGQPNNPRQFQGRVSLTRHASWDFDTFSFYMDLKAVRSDDTAIYFCARQRSDYWDFDVWGSGTQVTVSSASTKGPSVFPLAPSSKSTSGGTAALGCLVKDYFPEPVTVSWNSGALTSGVHTFPAVLQSSGLYSLSSVVTVPSSSLGTQTYICNVNHKPSNTKVDKKVEPKSCDKTHTCPPCPAPELLAGPDVFLFPPKPKDTLMISRTPEVTCVVVDVSHEDPEVKFNWYVDGVEVHNAKTKPREEQYNSTYRVVSVLTVLHQDWLNGKEYKCKVSNKALPLPEEKTISKAKGQPREPQVYTLPPSREEMTKNQVSLTCLVKGFYPSDIAVEWESNGQPENNYKTTPPVLDSDGSFFLYSKLTVDKSRWQQGNVFSCSVLHEALHSHYTQKSLSLSPGK light: not shown",0.09,0.94,15.3,> 50
"2.2.11-1 (antibody, human IgG1, kappa) heavy: QVHLSQSGAAVTKPGASVRVSCEASGYKIRDHFIHWWRQAPGQGLQWVGWINPKTGQPNNPRQFQGRVSLTRHASWDFDTFSFYMDLKAVRSDDTAIYFCARQRSDYWDFDVWGSGTQVTVSSASTKGPSVFPLAPSSKSTSGGTAALGCLVKDYFPEPVTVSWNSGALTSGVHTFPAVLQSSGLYSLSSVVTVPSSSLGTQTYICNVNHKPSNTKVDKKVEPKSCDKTHTCPPCPAPELLAGPDVFLFPPKPKDTLMISRTPEVTCVVVDVSHEDPEVKFNWYVDGVEVHNAKTKPREEQYNSTYRVVSVLTVLHQDWLNGKEYKCKVSNKALPLPEEKTISKAKGQPREPQVYTLPPSREEMTKNQVSLTCLVKGFYPSDIAVEWESNGQPENNYKTTPPVLDSDGSFFLYSKLTVDKSRWQQGNVFSCSVLHEALHSHYTQKSLSLSPGK light: not shown",0.04,0.4,2.65,> 50
"2.2.15-1 (antibody, human IgG1, kappa, V domains shown) VH: QVHLSQSGAAVTKPGASVRVSCEASGYKIRDHFIHWWRQAPGQGLQWVGWINPKTGQPNNPRQFQGRVSLTRHASWDFDTFSFYMDLKAVRSDDTAIYFCARQRSDYWDFDVWGSGTQVTVSS VL: DIQMTQSPSSLSARVGDTATITCQANGYLNWYQQRRGKAPKLLIYDGSKLERGVPARFSGRRWGQEYTLTINNLQPEDVATYFCQVYEFFGPGTRLDLKR",0.03,–,–,–
"2.3.15-1 (antibody, human IgG1, kappa, V domains shown) VH: QVHLSQSGAAVTKPGASVRVSCEASGYNIRDYFIHWWRQAPGQGLQWVGWINPKTGQPNNPRQFQGRVSLTRHASWDFDTFSFYMDLKAVRSDDTAIYFCARQRSDYWDFDVWGSGTQVTVSS VL: DIQMTQSPSSLSARVGDTATITCQANGYLNWYQQRRGKAPKLLIYDGSKLERGVPARFSGRRWGQEYTLTINNLQPEDVATYFCQVYEFFGPGTRLDLKR",0.1,–,–,–
"2.2.7-1 (antibody, human IgG1, kappa, V domains shown) VH: QVHLSQSGAAVTKPGASVRVSCEASGYKIRDHFIHWWRQAPGQGLQWVGWINPKTGQPNNPRQFQGRVSLTRHASWDFDTFSFYMDLKAVRSDDTAIYFCARQRSDYWDFDVWGSGTQVTVSS VL: DIQMTQSPSSLSARVGDRATITCQANGYLNWYQQRRGKAPKLLIYDGSKLERGVPARFSGSRWGQEYTLTISSLQPEDVATYFCQVYEFFGPGTRLDLKR",0.04,–,–,–
"2.3.7-1 (antibody, human IgG1, kappa, V domains shown) VH: QVHLSQSGAAVTKPGASVRVSCEASGYNIRDYFIHWWRQAPGQGLQWVGWINPKTGQPNNPRQFQGRVSLTRHASWDFDTFSFYMDLKAVRSDDTAIYFCARQRSDYWDFDVWGSGTQVTVSS VL: DIQMTQSPSSLSARVGDRATITCQANGYLNWYQQRRGKAPKLLIYDGSKLERGVPARFSGSRWGQEYTLTISSLQPEDVATYFCQVYEFFGPGTRLDLKR",0.07,–,–,–
"2.2.17-1 (antibody, human IgG1, kappa, V domains shown) VH: QVHLSQSGAAVTKPGASVRVSCEASGYKIRDHFIHWWRQAPGQGLQWVGWINPKTGQPNNPRQFQGRVSLTRHASWDFDTFSFYMDLKAVRSDDTAIYFCARQRSDYWDFDVWGSGTQVTVSS VL: DIQMTQSPSSLSARVGDTATITCQANGYLNWYQQRRGKAPKLLIYDGSKLERGVPARFSGRRWGQEYHLTINNLQPEDVATYFCQVYEFFGPGTRLDLKR",0.05,–,–,–
"2.3.17-1 (antibody, human IgG1, kappa, V domains shown) VH: QVHLSQSGAAVTKPGASVRVSCEASGYNIRDYFIHWWRQAPGQGLQWVGWINPKTGQPNNPRQFQGRVSLTRHASWDFDTFSFYMDLKAVRSDDTAIYFCARQRSDYWDFDVWGSGTQVTVSS VL: DIQMTQSPSSLSARVGDTATITCQANGYLNWYQQRRGKAPKLLIYDGSKLERGVPARFSGRRWGQEYHLTINNLQPEDVATYFCQVYEFFGPGTRLDLKR",0.08,–,–,–
"2.2.18-1 (antibody, human IgG1, kappa, V domains shown) VH: QVHLSQSGAAVTKPGASVRVSCEASGYKIRDHFIHWWRQAPGQGLQWVGWINPKTGQPNNPRQFQGRVSLTRHASWDFDTFSFYMDLKAVRSDDTAIYFCARQRSDYWDFDVWGSGTQVTVSS VL: DIQMTQSPSSLSARVGDRATITCQANGYLNWYQQRRGKAPKLLIYDGSKLERGVPARFSGSRWGQEYHLTISSLQPEDVATYFCQVYEFFGPGTRLDLKR",0.09,–,–,–
"2.3.18-1 (antibody, human IgG1, kappa, V domains shown) VH: QVHLSQSGAAVTKPGASVRVSCEASGYNIRDYFIHWWRQAPGQGLQWVGWINPKTGQPNNPRQFQGRVSLTRHASWDFDTFSFYMDLKAVRSDDTAIYFCARQRSDYWDFDVWGSGTQVTVSS VL: DIQMTQSPSSLSARVGDRATITCQANGYLNWYQQRRGKAPKLLIYDGSKLERGVPARFSGSRWGQEYHLTISSLQPEDVATYFCQVYEFFGPGTRLDLKR",0.16,–,–,–
